Compound potency records, mixed from different reports. Data source: NIAID ChemDB in PubChem.

All rows: growth or infection tests; agent: Mycobacterium tuberculosis

Percent inhibition refers to the dose given; in toxicity tests it is the harm to the cells.

{"SMILES": "Cc1ccc(Cl)c2c1C(=O)c1ccccc1C2=O", "strain": "H37Rv", "read-out": "MIC", "result": ">100 µg/mL"}
{"SMILES": "Cn1c(=O)c2c3oc(=O)cc(O)c3c(=O)n3c4ccccc4n(c1=O)c23", "strain": "H37Rv", "method": "BACTEC", "read-out": "MIC bound", "result": ">12.5 µg/mL"}
{"SMILES": "C[C@@H]1[C@H]2C[C@@H](C[C@H]1NCCNCCc1cccc(F)c1)C2(C)C", "read-out": "MIC", "result": "50 µM"}
{"SMILES": "CC(CNCC(c1ccccc1)c1ccccc1)NC1CCCCCCC1", "read-out": "MIC", "result": "50 µM"}
{"SMILES": "O=C(O)c1c(O)cc(=O)oc1-c1cccc(Cl)c1", "tested at": "12.5 µg/mL", "strain": "H37Rv", "method": "BACTEC", "read-out": "inhibition", "result": "-14%"}
{"SMILES": "C=CCc1cccc(C(=O)O)c1O", "strain": "H37Rv", "read-out": "MIC", "result": "25 µg/mL"}
{"SMILES": "O=C(C/C(=N\\NC(=O)C[n+]1ccccc1)C(=O)Nc1nc2ccc([N+](=O)[O-])cc2s1)CC(c1ccccc1)c1c(O)c2ccccc2oc1=O.[Cl-]", "tested at": "12.5 µg/mL", "strain": "H37Rv", "method": "BACTEC", "read-out": "inhibition", "result": "2%"}
{"SMILES": "O=S(=O)(Oc1ccc2ccccc2c1)c1ccc(Br)cc1", "strain": "H37Rv", "read-out": "MIC", "result": ">100 µg/mL"}
{"SMILES": "Fc1ccc(CCNCCNCC2CCCO2)cc1", "read-out": "MIC", "result": "50 µM"}
{"SMILES": "CCCCCC/C=N/NC(=O)C(=O)N/N=C/CCCCCC", "tested at": "12.5 µg/mL", "strain": "H37Rv", "method": "BACTEC", "read-out": "inhibition", "result": "7%"}
{"SMILES": "OCCCCCNCCN(Cc1ccccc1)Cc1ccccc1", "read-out": "MIC", "result": "50 µM"}
{"SMILES": "NS(=O)(=O)c1ccc2ccccc2c1", "strain": "H37Rv", "read-out": "MIC", "result": ">100 µg/mL"}
{"SMILES": "COc1ccc(CCNCCNC(C)c2cccc3ccccc23)cc1", "read-out": "MIC", "result": "50 µM"}
{"SMILES": "COc1ccccc1CCNCCNC(C)C12CC3CC(CC(C3)C1)C2", "read-out": "MIC", "result": "50 µM"}
{"SMILES": "CC1=C[C@H]2O[C@@H]3[C@H](O)[C@@H](O)[C@@](C)([C@@]2(CO)CC1)[C@]31CO1", "strain": "H37Rv", "method": "BACTEC", "read-out": "MIC bound", "result": ">12.5 µg/mL"}
{"SMILES": "CCCCC(CC)CN1CN(CC(CC)CCCC)CC(C)(NCCNCCc2ccc(O)cc2)C1", "read-out": "MIC", "result": "25 µM"}
{"SMILES": "CC(=O)NC(ON1C(=O)COc2ccccc21)C(Cl)(Cl)Cl", "strain": "H37Rv", "method": "BACTEC", "read-out": "MIC bound", "result": ">12.5 µg/mL"}
{"SMILES": "CCCCOc1nc(N)nc(N2CCCCC2)n1", "strain": "H37Rv", "read-out": "MIC", "result": "100 µg/mL"}
{"SMILES": "CC(C)=CCC/C(C)=C/CNCCNCC12CC3CC(CC(C3)C1)C2", "read-out": "MIC", "result": "25 µM"}
{"SMILES": "O=S(c1ccc(Cl)cc1)c1ccc(Cl)cc1", "strain": "H37Rv", "read-out": "MIC", "result": "25 µg/mL"}
{"SMILES": "c1ccc(CCCCNCCNC2CCc3ccccc32)cc1", "read-out": "MIC", "result": "50 µM"}
{"SMILES": "CCN(CC)C(=S)SCC(=O)O", "strain": "H37Rv", "method": "BACTEC", "read-out": "MIC bound", "result": ">128 µg/mL"}
{"SMILES": "CC1(C)[C@H]2CC[C@@H](CNCCNCCC3=CCCCC3)[C@@H]1C2", "read-out": "MIC", "result": "25 µM"}
{"SMILES": "C/C(=N\\O)C(=O)c1ccccc1", "strain": "H37Rv", "read-out": "MIC", "result": "100 µg/mL"}
{"SMILES": "CCCCCCCCCCCNCCNCC(O)c1ccccc1", "read-out": "MIC", "result": "25 µM"}
{"SMILES": "Cc1ccc(C)n1-c1ccc(S(=O)(=O)c2ccc(N)cc2)cc1", "strain": "H37Rv", "read-out": "MIC", "result": "50 µg/mL"}
{"SMILES": "Cn1c(O)c(/C=C2/C=Nc3ccccc32)n(C)c1=N", "strain": "H37Rv", "method": "BACTEC", "read-out": "MIC bound", "result": ">12.5 µg/mL"}
{"SMILES": "CC(=O)Nc1ccc(O)cc1", "strain": "H37Rv", "read-out": "MIC", "result": ">100 µg/mL"}
{"SMILES": "Cl.Cl.FC(F)(F)c1ccc2c(c1)N(CCCN1CCN(CCCl)CC1)c1ccccc1S2", "strain": "H37Rv", "method": "BACTEC", "read-out": "MIC bound", "result": ">12.5 µg/mL"}
{"SMILES": "O=C(O)c1ccccc1NCCO", "strain": "H37Rv", "read-out": "MIC", "result": ">100 µg/mL"}
{"SMILES": "COC(=O)C(Cc1ccccc1)NC(=O)N1CCCN(C(=O)NC(Cc2ccccc2)C(=O)OC)CCCN(C(=O)NC(Cc2ccccc2)C(=O)OC)CCC1", "strain": "H37Rv", "method": "resazurin", "read-out": "MIC bound", "result": ">6.25 µg/mL"}
{"SMILES": "Fc1ccccc1CCNCCN1CCCC2CCCCC21", "read-out": "MIC", "result": "50 µM"}
{"SMILES": "O=C(NCCN1CCOCC1)c1cn2c(ccc3sc4ccccc4c(=O)c32)n1", "strain": "H37Rv", "method": "BACTEC", "read-out": "MIC bound", "result": ">12.5 µg/mL"}
{"SMILES": "CCC(=O)c1cc(N)c(OC)cc1OC.Cl", "strain": "H37Rv", "read-out": "MIC", "result": ">100 µg/mL"}
{"SMILES": "CC(CNC[C@@H]1CC[C@H]2C[C@@H]1C2(C)C)NCCC(c1ccccc1)c1ccccc1", "read-out": "MIC", "result": "12.5 µM"}
{"SMILES": "O=C1OC(=O)C2C1C(c1ccc([N+](=O)[O-])cc1)N1C3C(=O)OC(=O)C3C(c3ccc([N+](=O)[O-])cc3)N21", "strain": "H37Rv", "method": "BACTEC", "read-out": "MIC bound", "result": ">12.5 µg/mL"}
{"SMILES": "Oc1ccccc1Sc1ccccc1O", "strain": "H37Rv", "read-out": "MIC", "result": "25 µg/mL"}
{"SMILES": "c1ccc(COC2(OCc3ccccc3)CC3OC2C2NN=NC32)cc1", "strain": "H37Rv", "method": "BACTEC", "read-out": "MIC bound", "result": ">12.5 µg/mL"}
{"SMILES": "O=C(O)c1cccc([N+](=O)[O-])c1O", "strain": "H37Rv", "read-out": "MIC", "result": ">100 µg/mL"}

Lines come from different laboratories, so protocols vary. MIC bound comes from a single tested concentration.